Single amino acid changes in Zika NS2B-NS3 and viral growth

From the data files of Ni et al. 2025, doi:10.1038/s41467-025-63602-z.

Chain scanned (Zika virus MR766; NS2B from position 2 to 131, then the start of NS3):
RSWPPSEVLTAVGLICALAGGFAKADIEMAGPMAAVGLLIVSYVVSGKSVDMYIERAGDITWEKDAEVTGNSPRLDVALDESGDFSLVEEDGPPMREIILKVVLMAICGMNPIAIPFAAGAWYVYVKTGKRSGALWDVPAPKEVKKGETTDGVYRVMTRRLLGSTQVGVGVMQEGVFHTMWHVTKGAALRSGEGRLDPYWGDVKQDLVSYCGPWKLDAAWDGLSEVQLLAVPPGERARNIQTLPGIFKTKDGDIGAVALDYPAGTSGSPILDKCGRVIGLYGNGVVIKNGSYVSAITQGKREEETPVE

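Libraries of single mutants were passaged as virus pools on Huh-7.5 cells. Sequencing of three replicate libraries (two for positions 207-308) was averaged into one effect per change. The aim was to find sites where inhibitor-binding pockets cannot change.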

Values are log2 effects on growth: 0 is wild type, lower means poorer growth.
Substitutions are written as wild-type residue, site number, new residue.
All changes here are to aspartate.

- S266D: -5.34
- G267D: -5.96
- S268D: -4.87
- P269D: -4.32
- I270D: -3.21
- L271D: -3.42
- K273D: -3.69
- C274D: -2.98
- G275D: -2.01
- R276D: -4.48
- V277D: -3.95
- I278D: -4.49
- G279D: -4.56
- L280D: -4.73
- Y281D: -5.29
- G282D: -2.75
- N283D: -5.15
- G284D: -4.35
- V285D: -4.56
- V286D: -4.94
- I287D: -5.13
- K288D: -4.87
- N289D: -4.07
- G290D: -5.46
- S291D: -3.73
- Y292D: -4.86
- V293D: -5.04
- S294D: -4.40
- A295D: -5.82
- I296D: -4.75
- T297D: -4.49
- Q298D: -3.57
- G299D: -5.44
- K300D: -5.14
- R301D: -4.86
- E302D: -1.11
- E303D: -0.61
- E304D: -2.06
- T305D: 0.04
- P306D: -4.12
- V307D: -3.89
- E308D: 0.74

The first 5 entries again:

substitution	log2 effect
S266D	-5.34
G267D	-5.96
S268D	-4.87
P269D	-4.32
I270D	-3.21

Position 1 still belongs to NS2A. In the paper, -1 or higher counts as tolerated.
The region was split into three libraries (1-103, 104-206, 207-308).
Six mutants with high scores were retested singly and none clearly outgrew wild type, so positive values are not proof of better growth.